Assays:
Parameters in all cases: species or system goat
[1] = Concentrations of macro- and micro-elements in cheese (ICP-OES); details: for increase in calcium content of cheese compared to the control: 20 mg Ca 100 g^−1 of milk
[2] = Protein retention in cheese; details: 20 mg Ca 100 g^−1 of milk
[3] = Cheese yield; details: 20 mg Ca 100 g^−1 milk

SMILES | increase in phosphorus content of cheese compared to the control cheese ([1]; highest level) [mg] | reduction of protein retention compared to the control cheese [2] [%] | increase in cheese yield compared to the control [3] [%] | increase in calcium content of cheese compared to the control [1] [mg]
O=C([O-])[C@H](O)[C@@H](O)[C@H](O)[C@H](O)CO.O=C([O-])[C@H](O)[C@@H](O)[C@H](O)[C@H](O)CO.[Ca+2] [Gluconate, calcium gluconate] | 31.53 | 7.66 | 4.04 | –
[Ca+2].[Cl-].[Cl-] [Chloride, Calcium chloride, reference compound] | – | – | 2.55 | –
CC(O)C(=O)[O-].CC(O)C(=O)[O-].[Ca+2] (stereo not drawn) [Lactate, calcium lactate] | – | – | – | 20.81
O=C([O-])[O-].[Ca+2] [Carbonate, calcium carbonate] | – | – | – | 15.06

— PMC10572428, “Possibility of Using Different Calcium Compounds for the Manufacture of Fresh Acid Rennet Cheese from Goat’s Milk” (Foods, 2023)
